Compound potency records, mixed from different reports. Data source: NIAID ChemDB in PubChem.

All rows: host cell toxicity; endpoint: CC50

Neighbouring rows are from separate reports. CCn: concentration that lowers growth or viability of the cells by n%. An empty or dashed field is not shown.

compound | cell line | read by | conditions | value
Nc1ncc2c(ncn2COC(CO)CO)n1 | BCBL-1 |  |  | 24 µM
CCOC(=O)c1ccc2c(c1)nc(-c1ccc(O)cc1O)n2CCN1CCCC1=O | Vero cell | MTT |  | >62.5 µg/mL
Nc1ncnc2c1ncn2[C@@H]1C=C(CO)[C@@H](O)[C@H]1O | MA-104 |  |  | 14 µg/mL
CCCCN(CCCC)c1cccc(C2(O)CCN(CCCC(=O)c3ccc(NC4CCCCC4)cc3)CC2)c1 | COSA5 |  |  | 20 µM
O=c1[nH]c(=O)n([C@@H]2O[C@H](CO)[C@@H](O)[C@@H]2O)cc1/C=C/Cl | HEL |  |  | >526 µM
Nc1nc2c(ncn2CCC(CO)CO)c(=O)[nH]1 | BCBL-1 |  |  | 132 µM
CC(C)Cc1ccc(C(C)C(=O)NCc2ccc(N)cc2)cc1 | RAW 264.7 | resazurin / fluorescence |  | 200 µg/mL
CN(C)C(=S)N/N=C(\c1ccccc1)c1ccccn1 | CEM-GFP | propidium iodide |  | 2 µM
Nc1ncnc2c1ncn2C[C@@H](CO)OCP(=O)(O)O | BCBL-1 |  |  | 191 µM
CCOC(=O)c1ccc2c(c1)nc(-c1ccc([N+](=O)[O-])cc1)n2CCN1CCCOC1 | Vero cell | MTT |  | >62.5 µg/mL
CC(C)Nc1nc2cc3cc(Cl)c(Cl)cc3cc2n1[C@@H]1O[C@H](CO)[C@@H](O)[C@H]1O | KB |  |  | 146 µM
CCOC(=O)c1ccc2c(c1)nc(-c1ccc(N3CCOCC3)cc1)n2CCN1CCCOC1 | Vero cell | MTT |  | >62.5 µg/mL
Nc1ncnc2c1ncn2[C@@H]1C=C(CO)[C@@H](O)[C@H]1O | P4 |  |  | 30 µM
Nc1ncnc2c1ncn2[C@@H]1C[C@@H](O)[C@H](CO)O1 | CV-1 |  |  | >100 µM
O=[N+]([O-])c1c(Cl)ncnc1NN1CC[N+]2(CC1)CC[N+]1(CCN(Nc3ncnc(Cl)c3[N+](=O)[O-])CC1)CC2 | K562 |  |  | >311.4 µg/mL
[Cl][Sn]([Cl])([c]1ccccc1)[c]1ccccc1 | HFF |  |  | 1.1 µg/mL
Cc1cn([C@H]2C=C[C@@H](CO)O2)c(=O)[nH]c1=O | HeLaT4 |  |  | >334.8 µM
CN(C)CCNc1ccc(C(=O)CCCN2CCC(O)(c3ccc(Cl)cc3)CC2)cc1 | COSA5 |  |  | 60 µM
CC(C)(O)C1=CC[C@@]2(C)C[C@@H]3O[C@]3(C)CC[C@@H]3O[C@@]3(C)CC[C@H]12 | KB |  |  | >20 µg/mL
[Cl][Sn]([c]1ccccc1)([c]1ccccc1)[c]1ccccc1 | HFF |  |  | <1 µg/mL
CC[C@@H](O)C1=C[C@@H](n2cnc3c(N)ncnc32)[C@H](O)[C@@H]1O | P4 |  |  | >68 µM
O=c1[nH]c(=O)n([C@H]2C[C@H](O)[C@@H](CO)O2)cc1I | HEL |  |  | 76 µM
O=c1[nH]c(=O)n([C@H]2C[C@H](O)[C@@H](CO)O2)cc1/C=C/Br | P3HR-1 |  |  | 75 µg/mL
CCCCN(CCCC)c1ccc(C2(O)CCN(CCCC(=O)c3ccc(F)cc3)CC2)cc1 | COSA5 |  |  | 10 µM
OC[C@H]1O[C@@H](n2cnc3nc4cc(Cl)c(Cl)cc4cc32)[C@H](O)[C@@H]1O | KB |  |  | 85 µM
CC[C@H](/C=C/[C@@H](C)[C@H]1CCC2C3CC=C4C[C@@H](O)CC[C@]4(C)[C@@]3(C)CC[C@@]21C)C(C)C | RAJI | ATP |  | >26 µM
O=C(O)c1ccc(NS(=O)(=O)c2ccc(NC3=CC(=O)c4ccccc4C3=O)cc2)cc1 | P3HR-1 |  |  | >100 µg/mL
NC1=NC2C(C=CN2CC(CO)CCO)C(=O)N1 | BCBL-1 |  |  | 471 µM
CCOC(=O)c1ccc2c(c1)nc(-c1ccccc1)n2CCN1CCCC1=O | Vero cell | MTT |  | >62.5 µg/mL
CCCCN(CCCC)c1ccc(C(=O)CCCN2CCC(O)(c3ccc(Cl)cc3)CC2)cc1 | COSA5 |  |  | 70 µM
Nc1ccn([C@H]2CC[C@@H](CO)O2)c(=O)n1 | CFU-GM |  |  | 10 µM
CSc1nc(Cl)c([N+](=O)[O-])c(N2CC[N+]3(CC2)CC[N+]2(CCN(c4nc(SC)nc(Cl)c4[N+](=O)[O-])CC2)CC3)n1 | GMK |  |  | >659.2 µg/mL
[C-]#[N+][C@@]1(C)CC[C@H]2[C@H]3[C@H]4C(=CC(C)(C)C[C@@H]4C[C@@H]2C)CC[C@@H]31 | KB |  |  | 14.5 µg/mL
O=c1oc2c(O)c(O)cc3c(=O)oc4c(O)c(O)cc1c4c23 | RAJI | ATP |  | >26 µM
O=c1ccn([C@H]2C[C@H](F)[C@@H](CO)O2)c(=O)[nH]1 | K562 |  |  | >1000 µM
COC(=O)C(C)c1cc([NH+]([O-])O)c(CC(C)C)c([NH+]([O-])O)c1 | RAW 264.7 | resazurin / fluorescence |  | 250 µg/mL
Cc1cn([C@H]2C[C@H](F)[C@@H](CO)O2)c(=O)[nH]c1=O | REH |  |  | 160 µM
O=C1OC(Oc2ccc(-c3ccccc3)cc2)C(NCCNc2ccnc3cc(Cl)ccc23)C1Br | CHO | MTT |  | 1.82 µg/mL
Cc1cn([C@@H]2O[C@H](CO)C[C@@H]2O)c(=O)[nH]c1=O | HEL |  |  | >661 µM
Cc1nnc(C(C)C)n1C1C[C@H]2CC[C@@H](C1)N2CC[C@H](NC(=O)C1CCC(F)(F)CC1)c1ccccc1 | PBMC (multiple donors) | MTS |  | >10 µM
O=c1[nH]c(=O)n([C@@H]2O[C@H](CO)[C@@H](O)[C@@H]2F)cc1I | HEL |  |  | 3.1 µM
CCNc1nc(OC)nc(N2CCN(c3ccc(N4C[C@H](CNC(C)=O)OC4=O)cc3F)CC2)n1 | THP-1 | MTT |  | 54.2 µg/mL
Nc1ncnc2c1ncn2C[C@H](O)CO | P4 |  |  | >191 µM
OC[C@H]1O[C@@H](n2c(Cl)nc3cc4cc(Cl)c(Cl)cc4cc32)[C@H](O)[C@@H]1O | KB |  |  | 19 µM
Nc1ccn([C@@H]2C[C@@H](O)[C@H](CO)O2)c(=O)n1 | MA-104 |  |  | >100 µM
CCN(CC)c1cccc(C2(O)CCN(CCCC(=O)c3ccc(F)cc3)CC2)c1 | COSA5 |  |  | 130 µM
C[CH2][Sn]([Cl])([Cl])[CH2]C.c1ccc(-c2nc3ccccc3[nH]2)nc1 | HFF |  |  | 11 µg/mL
O=[N+]([O-])c1c(C2CCCCCC2)ncnc1N1CC[N+]2(CC1)CC[N+]1(CCN(c3ncnc(C4CCCCCC4)c3[N+](=O)[O-])CC1)CC2 | GMK |  |  | >67.8 µg/mL
Nc1ncnc2c1ncn2[C@H]1CC[C@@H](CO)O1 | BFU-E |  |  | 10 µM
CCCCC1CN(S(=O)(=O)C2CC2)CCC12CCN(C1(C)CCN(C(=O)c3c(C)ncnc3C)CC1)CC2 | CEM-R5 |  |  | 0.007 µM
c1cnc2c(c1)ccc1cccnc12 | J774A.1 | absorbance |  | ≤50 µM
CCNC(=S)N/N=C(\c1cccc([N+](=O)[O-])c1)c1ccccn1 | CEM-GFP | propidium iodide |  | >10 µM
Nc1nc2c(ncn2COC(CO)CO)c(=O)[nH]1 | BCBL-1 |  |  | 354 µM
C=CCNC(=S)N/N=C(\c1cccc([N+](=O)[O-])c1)c1ccccn1 | CEM-GFP | propidium iodide |  | >10 µM
[C-]#[N+][C@@]1(C)CC[C@H]2[C@H]3[C@@H](C(=C)CC[C@@H]31)[C@H](C=C(C)C)C[C@@H]2C | KB |  |  | 3.2 µg/mL
Nc1ncnc2c1ccn2[C@@H]1O[C@H](CO)[C@H](O)[C@H]1O | PRK |  |  | 10 µg/mL
CCCC[CH2][Sn]([Cl])([Cl])[CH2]CCCC | HFF |  |  | <1 µg/mL
O=C(O)c1cc(O)cc(O)c1N=Nc1ccc(/C=C/c2ccc(N=Nc3c(O)cc(O)cc3C(=O)O)cc2S(=O)(=O)O)c(S(=O)(=O)O)c1 | AA5 |  |  | 112 µg/mL
CC1(C)[C@@H](Br)CC[C@]2(C)O[C@H]3COC(=O)C3=CC[C@@H]12 | KB |  |  | 7.2 µg/mL
CC1CCCC23CC4C(CC12C)C4(C)C3 | BJ | ATP |  | >26 µM
C[N+]1(CC[N+]2(C)CCN(c3ncnc(Cl)c3[N+](=O)[O-])CC2)CCN(c2ncnc(Cl)c2[N+](=O)[O-])CC1 | GMK |  |  | >627.2 µg/mL
O=c1[nH]c(=O)n([C@@H]2O[C@H](CO)[C@@H](O)[C@@H]2F)cc1/C=C/Br | HEL |  |  | 413 µM
Nc1nccc2c1ncn2[C@@H]1C=C(CO)[C@@H](O)[C@H]1O | PRK |  |  | 0.14 µg/mL
S=C(N/N=C(/c1ccccc1)c1ccccn1)Nc1ccccc1 | CEM-GFP | propidium iodide |  | 0.9 µM
CCOC(=O)c1ccc2nc(-c3ccc(Cl)cc3)[nH]c2c1 | Vero cell | MTT |  | >62.5 µg/mL
Cc1cn([C@H]2C[C@H](N=[N+]=[N-])[C@@H](CO)O2)c(=O)[nH]c1=O | PBL |  |  | 44 µM
Cc1cn([C@@H]2C[C@@H](O)[C@H](CO)O2)c(=O)[nH]c1=O | CV-1 |  |  | >100 µM
C/C(=N\OCc1ccc(F)cc1)c1c(C)cc(=O)n(O)c1O | HepDES19 | MTS | 3 d | 81 µM
CC/C=C\C[C@H]1C(=O)CC[C@@H]1CC(=O)OC | RAJI | ATP |  | >26 µM
O=[N+]([O-])c1c(N2CCCC2)ncnc1N1CC[N+]2(CC1)CC[N+]1(CCN(c3ncnc(N4CCCC4)c3[N+](=O)[O-])CC1)CC2 | K562 |  |  | >293.4 µg/mL
Cc1cn([C@H]2C=C[C@@H](CO)O2)c(=O)[nH]c1=O | BFU-E |  |  | 10 µM
Cc1cccc2c1OP(=O)(OC[C@H]1O[C@@H](n3cc(/C=C/Br)c(=O)[nH]c3=O)C[C@@H]1OC(=O)C(C)(C)C)OC2 | P3HR-1 |  |  | 57 µM
Cc1nc(N2CCC[N+]3(CC2)CC[N+]2(CCCN(c4nc(C)nc5c4no[n+]5[O-])CC2)CC3)c2c(no[n+]2[O-])n1 | L929 |  |  | >291.4 µg/mL
CC/C=C\C[C@@H]1[C@@H](CC(=O)OC)CC[C@@H]1O | HEK 293 | ATP |  | >26 µM
O=C(CCCl)NN1CC[N+]2(CC1)CC[N+]1(CCN(NC(=O)CCCl)CC1)CC2 | K562 |  |  | >393.5 µg/mL
[Br][Sn]([Br])([c]1ccccc1)[c]1ccccc1 | HFF |  |  | 1.2 µg/mL
CC(=O)NC[C@H]1CN(c2ccc(N3CCN(c4nc5ccccc5[nH]4)CC3)c(F)c2)C(=O)O1 | THP-1 | MTT |  | >100 µg/mL
CN(C)C(=S)NN=C(c1ccccn1)c1ccccn1 | CEM-GFP | propidium iodide |  | >10 µM
CCCCC1CN(S(=O)(=O)c2cn(C)cn2)CCC12CCN(C1(C)CCN(C(=O)c3c(C)ncnc3C)CC1)CC2 | CEM-R5 |  |  | 0.007 µM
CC#Cc1cn([C@@H]2O[C@H](CO)[C@@H](O)[C@@H]2O)c(=O)[nH]c1=O | HEL |  |  | >567 µM
Nc1nc2c(ncn2COCCO)c(=O)[nH]1 | BCBL-1 |  |  | ≥144 µg/mL
CN(N=C(c1ccccn1)c1ccccn1)C(N)=S | CEM-GFP | propidium iodide |  | >10 µM
CC(C)Nc1nc2cc3cc(Cl)c(Cl)cc3nc2n1[C@@H]1O[C@H](CO)[C@@H](O)[C@H]1O | KB |  |  | 90 µM
CCCCCCCCCC(=O)O[C@H]1C[C@H](n2cc(/C=C/Br)c(=O)[nH]c2=O)O[C@@H]1COP1(=O)OCc2cccc(C)c2O1 | P3HR-1 |  |  | >299 µM
Nc1nccc2c1ncn2[C@@H]1CC[C@@H](O)[C@H]1O | P4 |  |  | 37 µM
CC(=O)c1c(O)c(C)c(O)c2c1OC1=CC(=O)C(C(C)=O)C(=O)[C@]12C | KB |  |  | 13 µg/mL
CCCCC1CN(S(C)(=O)=O)CCC12CCN(C1(C)CCN(C(=O)c3c(C)ncnc3C)CC1)CC2 | CEM-R5 |  |  | 0.025 µM
Cc1nc(N2CC[N+]3(CC2)CC[N+]2(CCN(c4nc(C)nc5c4no[n+]5[O-])CC2)CC3)c2c(no[n+]2[O-])n1 | L929 |  |  | >334.8 µg/mL
CC[C@H](O)C1=C[C@@H](n2cnc3c(N)ncnc32)[C@H](O)[C@@H]1O | P4 |  |  | >68 µM

11 of the rows above, restated:

compound,cell line,read by,conditions,value
Cc1cn([C@@H]2O[C@H](CO)C[C@@H]2O)c(=O)[nH]c1=O,HEL,,,>661 µM
CCCCN(CCCC)c1cccc(C2(O)CCN(CCCC(=O)c3ccc(NC4CCCCC4)cc3)CC2)c1,COSA5,,,20 µM
CCCC[CH2][Sn]([Cl])([Cl])[CH2]CCCC,HFF,,,<1 µg/mL
Cc1nnc(C(C)C)n1C1C[C@H]2CC[C@@H](C1)N2CC[C@H](NC(=O)C1CCC(F)(F)CC1)c1ccccc1,PBMC (multiple donors),MTS,,>10 µM
CCCCC1CN(S(=O)(=O)c2cn(C)cn2)CCC12CCN(C1(C)CCN(C(=O)c3c(C)ncnc3C)CC1)CC2,CEM-R5,,,0.007 µM
c1cnc2c(c1)ccc1cccnc12,J774A.1,absorbance,,≤50 µM
O=c1[nH]c(=O)n([C@H]2C[C@H](O)[C@@H](CO)O2)cc1I,HEL,,,76 µM
CSc1nc(Cl)c([N+](=O)[O-])c(N2CC[N+]3(CC2)CC[N+]2(CCN(c4nc(SC)nc(Cl)c4[N+](=O)[O-])CC2)CC3)n1,GMK,,,>659.2 µg/mL
O=c1[nH]c(=O)n([C@@H]2O[C@H](CO)[C@@H](O)[C@@H]2F)cc1/C=C/Br,HEL,,,413 µM
CC1CCCC23CC4C(CC12C)C4(C)C3,BJ,ATP,,>26 µM
CCN(CC)c1cccc(C2(O)CCN(CCCC(=O)c3ccc(F)cc3)CC2)c1,COSA5,,,130 µM